Results of unrelated studies side by side (data: NIAID ChemDB).

All rows: cytotoxicity tests; cells: HepG2; measure: CC50

CCn: concentration that lowers growth or viability of the cells by n%. Conditions beyond the fields shown may differ between rows. a–b is a range or a potency band. Blank or dashed fields: not listed here.

smiles,read by,value
COc1ccc2ccc(=O)n(CCN[C@@H]3CC[C@@H]4[C@@H](C3)OC(=O)N4c3ccc4c(n3)NC(=O)CO4)c2n1,luminescence,>100 µg/mL
Cc1c(C(=O)Nc2cc(Cl)nc(Cl)c2)c(C)n(C)c1C(=O)C(=O)N[C@H](C)C(F)(F)F,MTT,>30 µM
O=C(COc1ccc2ccccc2c1)Nc1ccncc1,luminescence,>100 µM
CC(C)C[C@@H]1NC(=O)[C@H](Cc2c[nH]c3ccccc23)NC(=O)CNC(=O)[C@H](CC(N)=O)NC(=O)[C@H](C(C)C)NC(=O)[C@@H](CC(C)C)NC1=O,MTT,>30 µM
Cc1cc(=O)oc2c3c(ccc12)OC(C)(C)[C@@H](OC(=O)c1cccc(Cl)c1Cl)[C@H]3OC(=O)c1cccc(Cl)c1Cl,MTT,77.55 µM
CNC(=O)c1ccc(-n2c(NC(C)C)nc3c(c2=O)C[C@@H](C)N(C(=O)c2ccc(Br)c(C(F)(F)F)c2)C3)cn1,luminescence,>50 µM
COc1ccc(Cl)c2c1B(O)O[C@@H]2CN,radiometric,105 µM
COc1cc2c(cc1OC)C1(CC=CCC1)N(C(C)=O)CC2,-,>20 µM
Cc1cc(=O)oc2c3c(ccc12)OC(C)(C)[C@@H](OC(=O)c1ccc(Br)cc1)[C@H]3OC(=O)c1ccc(Br)cc1,MTT,60.92 µM
Nc1ncnc2c1c(-c1cc3ccccc3o1)cn2[C@@H]1O[C@H](CO)[C@@H](O)C1(F)F,XTT,>10 µM
Cc1cc(=O)oc2c3c(ccc12)OC(C)(C)[C@@H](OC(=O)c1cccc(Br)c1)[C@H]3OC(=O)c1cccc(Br)c1,MTT,>100 µM
O=C(CSc1ccccc1)Nc1ccc(Br)cc1,luminescence,>100 µM
CCOC(OCC)C(=O)NCCc1ccc(OC)c(OC)c1,-,<7.5 µM
Cc1cc(NC(=O)c2c(C)c(C(=O)C(=O)NC3(C)CCC(O)CC3)n(C)c2C)cc(C)c1F,MTT,>30 µM
COc1ccc(F)cc1CNCCCNc1ccnc2cc(-c3cc(C(F)(F)F)cc(C(F)(F)F)c3)ccc12,fluorescence,0.87 µM
CNC(=O)c1ccc(-n2c(NC(C)C)nc3c(c2=O)C[C@@H](C)N(C(=O)c2ccc(C(F)(F)F)c(Cl)c2)C3)cc1,luminescence,>50 µM
C[C@H](NC(=O)[C@H](Cc1ccccc1)C[C@@H](O)[C@H](Cc1ccccc1)NC(=O)OC(C)(C)C)C(=O)N[C@@H]1C(=O)N(C)c2ccccc2-c2ccccc21,-,>10 µM
COC(=O)N1CC[C@@H](Oc2nc3sc(C(=O)NC4CCC4)cc3s2)C1,fluorescence,>100 µM
CC(C)Nc1nc2cc(-c3ccc(Cl)cc3)sc2c(=O)[nH]1.O=C(O)/C=C/C(=O)O,MTT,25.6 µM
CC(C)(C)c1ccc(-c2ccc3c(NCCCNCc4ccco4)ccnc3c2)cc1,fluorescence,3.15 µM
NC(=Nc1ccccc1)c1ccc(N2CCN(c3ccc(C(N)=Nc4ccccc4)cc3)CC2)cc1,-,>11.6 µg/mL
NC[C@H]1OB(O)c2c(OCCO)ccc(Cl)c21,radiometric,137 µM
CCCC/C=C/C=C/c1nc2cc(OC)ccc2n2cccc12,MTT / absorbance,18.3 µM
C[C@H]1C[C@@H]1NC(=O)c1cc2sc(N3CCOC(C)(C)C3)nc2s1,fluorescence,>100 µM
N#Cc1ccc2ccc(=O)n(CCN(CCN)[C@H]3CC[C@H]4[C@@H](C3)OC(=O)N4c3ccc4c(n3)NC(=O)CO4)c2c1,luminescence,>100 µg/mL
Cc1ccc(-c2cc3nc(NC(C)C)[nH]c(=O)c3s2)cc1,MTT,49.4 µM
NC[C@H]1OB(O)c2c(OCCO)ccc(Br)c21,radiometric,116 µM
C[C@@H]1CN(c2nc3sc(C(=O)N[C@H]4C[C@@H]4C)cc3s2)CCO1,fluorescence,>100 µM
COc1ccc(F)cc1CNCCCNc1ccnc2cc(-c3ccccc3)ccc12,fluorescence,2.96 µM
CC(C)C[C@@H]1NC(=O)[C@H](Cc2c[nH]c3ccccc23)NC(=O)[C@@H](CCCCN)NC(=O)[C@H](CC(N)=O)NC(=O)[C@H](C(C)C)NC(=O)[C@@H](CC(C)C)N(C)C1=O,MTT,>30 µM
CCOC(=O)CCCCCOc1cccc(CN(C(=O)c2ccc(-c3ccoc3)cc2)C(C)C)c1,-,>20 µM
CNC(=O)c1cc(-n2c(NC(C)C)nc3c(c2=O)C[C@@H](C)N(C(=O)c2ccc(Cl)c(C(F)(F)F)c2)C3)ccn1,luminescence,>50 µM
C[C@H](NC(=O)[C@@H](O)c1cc(F)cc(F)c1)C(=O)N[C@@H]1C(=O)N(C)c2ccccc2-c2ccccc21,-,>10 µM
C#Cc1ccc(C(=O)N2Cc3nc(NC(C)C)n(-c4ccc(C(=O)NC)cc4)c(=O)c3C[C@H]2C)cc1,luminescence,>50 µM
CC(C)N(Cc1cccc(OCCCCCC(=O)O)c1)C(=O)c1ccc(-c2ccc3c(c2)OCO3)cc1,-,>20 µM
Nc1ncnc2c1c(-c1cccs1)cn2[C@@H]1O[C@H](CO)[C@@H](O)[C@H]1F,XTT,>10 µM
O=C(Nc1ccc(C(F)(F)F)cc1)Nc1cccc(Cl)c1,luminescence,5.6 µM
Cc1cc(NC(=O)c2c(C)c(C(=O)C(=O)N[C@H]3C[C@@H]4CC[C@H]3C4)n(C)c2C)ccc1F,MTT,5–30 µM
Cc1cc(=O)oc2c3c(ccc12)OC(C)(C)[C@@H](OC(=O)c1cccc([N+](=O)[O-])c1)[C@H]3OC(=O)c1cccc([N+](=O)[O-])c1,MTT,>100 µM
COc1ccc(Oc2ccc3c(NCCCNCc4ccco4)ccnc3c2)cc1,fluorescence,5.3 µM
CC(C)N(Cc1cccc(OCCCCCC(=O)OC(=O)O)c1)C(=O)c1ccc(-c2ccc3c(c2)OCCO3)cc1,-,>20 µM
c1ccc2[nH]c(-c3ccc(N4CCN(c5ccc(-c6nc7ccccc7[nH]6)cc5)CC4)cc3)nc2c1,-,>71 µg/mL
O=C(COc1ccc(Br)cc1)N1CCN(c2ccccc2F)CC1,luminescence,57 µM
Cc1cc(NC(=O)c2c(C)c(C(=O)C(=O)NC3C[C@H]4C[C@@H]3CC4O)n(C)c2C)ccc1F,MTT,>30 µM
CNC(=O)[C@H]1CC[C@@H](n2c(NC(C)C)nc3c(c2=O)C[C@@H](C)N(C(=O)c2ccc(Cl)c(C(F)(F)F)c2)C3)C1,luminescence,23.2 µM
O=C(Nc1ccc2c(c1)OCO2)c1cc(-c2cccs2)nc2ccccc12,-,>20 µM
CCOc1ccc(Cl)c2c1B(O)O[C@@H]2CN,radiometric,19.6 µM
C[C@@H]1CN(c2nc3sc(C(=O)N[C@H]4C[C@@H]4C)cc3s2)CCN1C1COC1,fluorescence,>100 µM
C/C=C/C=C/c1nc2ccccc2n2ccc(OCC)c12,MTT / absorbance,4.5 µM
NCCCOc1ccc2ccc(=O)n(CCN[C@H]3CC[C@H]4[C@@H](C3)OC(=O)N4c3ccc4c(n3)NC(=O)CO4)c2n1,luminescence,>100 µg/mL
Cc1cc(NC(=O)c2c(C)c(C(=O)C(=O)NC34CC(O)(C3)C4)n(C)c2C)ccc1F,MTT,>30 µM
C[C@H]1C[C@@H]1NC(=O)c1cc2sc(OC3COC3)nc2s1,fluorescence,>100 µM
CCOC(=O)c1nnn(-c2nc(N3CCCC3)nc(N3CCCC3)n2)c1-c1ccccc1,luminescence,>50 µM
CC(C)C[C@@H]1NC(=O)[C@H](Cc2c[nH]c3ccccc23)NC(=O)[C@@H](C(C)(C)C)NC(=O)[C@H](CCCCN)NC(=O)[C@H](C(C)C)NC(=O)[C@@H](CC(C)C)NC1=O,MTT,>30 µM
CNC(=O)c1ccc(-n2c(NC(C)C)nc3c(c2=O)C[C@@H](C)N(C(=O)c2ccc(Br)c(Cl)c2)C3)cc1,luminescence,>50 µM
NC(=NC1CCCCCCC1)c1ccc(N2CCN(c3ccc(C(N)=NC4CCCCCCC4)cc3)CC2)cc1,-,>1.95 µg/mL
CC(C)C[C@@H]1NC(=O)[C@H](Cc2c[nH]c3ccccc23)NC(=O)CNC(=O)[C@H](CO)NC(=O)[C@H](C(C)C)NC(=O)[C@@H](CC(C)C)NC1=O,MTT,>30 µM
Cc1ccc(-c2cc3nc(NC(C)C)[nH]c(=O)c3s2)cc1.O=C(O)/C=C/C(=O)O,MTT,26.9 µM
NC(=NC1CCC1)c1ccc(N2CCN(c3ccc(C(N)=NC4CCC4)cc3)CC2)cc1,-,>5.8 µg/mL
CCC/C=C/C=C/c1nc2ccccc2n2cccc12,MTT / absorbance,9.3 µM
CC(C)N(Cc1cccc(OCCCCCC(=O)OC(=O)O)c1)C(=O)c1ccc(-c2ccc3[nH]ccc3c2)cc1,-,>20 µM
OCc1cn(-c2ccc(F)cc2)nc1-c1ccc(Cl)cc1,luminescence,57 µM
CC(C)C[C@@H]1NC(=O)[C@H](Cc2c[nH]c3ccccc23)NC(=O)[C@@H](CC2CCCCC2)NC(=O)[C@H](CCCCN)NC(=O)[C@H](C(C)C)NC(=O)[C@@H](CC(C)C)NC1=O,MTT,>30 µM
C[C@H]1CN(c2nc3sc(C(=O)N[C@H]4C[C@@H]4C)cc3s2)[C@@H](C)CO1,fluorescence,>100 µM
CCCC/C=C/C=C/c1nc2cccc(OC)c2n2cccc12,MTT / absorbance,15.8 µM
Cn1nc(C2CC2)cc1C(=O)Nc1ccc(I)cc1,luminescence,>100 µM
Nc1nc2c(ncn2[C@H]2CO[C@@H](CO)O2)c(=O)[nH]1,-,<25 µM
CC(C)C[C@@H]1NC(=O)[C@H](Cc2c[nH]c3ccccc23)NC(=O)[C@@H](CCCNC(N)=O)NC(=O)[C@H](CC(N)=O)NC(=O)[C@H](C(C)C)NC(=O)[C@@H](CC(C)C)NC1=O,MTT,>30 µM
CCCCCCCCN=C(N)c1ccc(N2CCN(c3ccc(C(N)=NCCCCCCCC)cc3)CC2)cc1,-,2.23 µg/mL
CC(C)C[C@@H]1NC(=O)[C@H](Cc2c[nH]c3ccccc23)NC(=O)[C@@H](C)NC(=O)[C@H](CCCCN)NC(=O)[C@H](C(C)C)NC(=O)[C@@H](CC(C)C)NC1=O,MTT,>30 µM
N#Cc1ccc(Cc2ccc3c(NCCCNCc4ccco4)ccnc3c2)cc1,fluorescence,7.91 µM
Cc1c(C(=O)Nc2ccc(F)c(C3CC3)c2)c(C)n(C)c1C(=O)C(=O)NC1(C)CCC(O)CC1,MTT,>30 µM
Nc1ncnc2c1c(-c1ccco1)cn2[C@@H]1O[C@H](CO)[C@@H](O)C1(F)F,XTT,>10 µM
COc1c(C)c2c(c(O)c1C/C=C(\C)CCC(=O)O)C(=O)OC2,-,~40 µM
Cc1cc(=O)oc2c3c(ccc12)OC(C)(C)[C@@H](OC(=O)c1cc(Cl)ccc1Cl)[C@H]3OC(=O)c1cc(Cl)ccc1Cl,MTT,>100 µM
CC(C)C[C@@H]1NC(=O)[C@H](Cc2c[nH]c3ccccc23)NC(=O)[C@@H](CCCCN)NC(=O)[C@H](C)NC(=O)[C@H](C(C)C)NC(=O)[C@@H](CC(C)C)NC1=O,MTT,>30 µM